We go through 57 compounds from patent US11203613B2, “Peptidomimetic proteasome inhibitors” (CORNELL UNIVERSITY, priority 2017, dated 2021).

Structures are written as SMILES. Values joined by “and” are separate entries in the source; they are usually repeats but may differ in a detail not shown here. Identical values can stand only once. Where only a bound is given, the exact number is not on record here.

In one data set the test system is Mtb20SOG. It is filed as biochemical, Mycobacterium tuberculosis. To be noted: Table 2; Hu c-20S IC50 over Mtb20SOG IC50.
`Cc1cc(C(=O)N[C@@H](CC(=O)N2CCCCC2C)C(=O)N(C)[C@@H](C)C(=O)NCc2ccc(F)cc2F)no1` (stereo partly drawn) yielded a Selectivity of 1.9.

In turn, `C[C@H](NC(=O)[C@H](CC(=O)N1CCCC[C@@H]1C)NC(=O)CCc1ccccc1)C(=O)NCc1cccc(NC(=O)OC(C)(C)C)c1` yielded a Selectivity of 2. Same read-out and setting: the result for `C[C@H](NC(=O)[C@H](CC(=O)N1CCCC[C@@H]1C)NC(=O)CCc1ccccc1)C(=O)NCc1cccc(N)c1` reads 138; that for `Cc1cc(C(=O)N[C@@H](CC(=O)N2CCCC[C@@H]2C)C(=O)N[C@@H](C)c2ncc(-c3ccccc3)[nH]2)no1` [CF-503102], 20 and 23. Same read-out and setting: the figure for `Cc1cc(C(=O)N[C@@H](CC(=O)N2CCCC[C@@H]2C)C(=O)N[C@@H](C)c2ncc(Cc3ccccc3)[nH]2)no1` [CF-503133] is 21 and 30; for `C[C@H](NC(=O)[C@H](CC(=O)N1CCCC[C@@H]1C)NC(=O)CC1CCOCC1)c1ncc(Cc2ccccc2)[nH]1` [CF-503135] it is 20 and 35. Still for that read-out and setting: the result for `C[C@H](NC(=O)[C@H](CC(=O)N1CCCC[C@@H]1C)NC(=O)CC1CC1)c1ncc(Cc2ccccc2)[nH]1` [CF-503136] reads 11; that for `C[C@H](NC(=O)[C@H](CC(=O)N1CCCC[C@@H]1C)NC(=O)CC1CC1)c1ncc(-c2ccc(F)cc2F)[nH]1` [CF-503138], 70 and 123. In the case of `C[C@H](NC(=O)[C@H](CC(=O)N1CCCC[C@@H]1C)NS(=O)(=O)Cc1ccccc1)c1ncc(-c2ccc(F)cc2F)[nH]1` [CF-503140], the Selectivity was 16. The same measure, in the same setting: the result for `CC(C)CS(=O)(=O)N[C@@H](CC(=O)N1CCCC[C@@H]1C)C(=O)N[C@@H](C)c1ncc(-c2ccc(F)cc2F)[nH]1` [CF-503141] reads 13; that for `C[C@H](NC(=O)[C@H](CC(=O)N1CCCC[C@@H]1C)NS(=O)(=O)c1ccccc1)c1ncc(-c2ccc(F)cc2F)[nH]1` [CF-503142], 12. The same measure, in the same setting: the result for `CCS(=O)(=O)N[C@@H](CC(=O)N1CCCC[C@@H]1C)C(=O)N[C@@H](C)c1ncc(-c2ccc(F)cc2F)[nH]1` [CF-503144] reads 15. Same read-out and setting: the result for `C[C@H](NC(=O)[C@H](CC(=O)N1CCCC[C@@H]1C)NCC(=O)c1ccccc1)c1ncc(-c2ccc(F)cc2F)[nH]1` [CF-503145] reads 1.5; that for `Cc1cc(C(=O)N[C@@H](CC(=O)N2CCCC[C@@H]2C)C(=O)N[C@@H](C)c2nc3ccccc3[nH]2)no1` [CF-503148], 19. Turning to `CC(C)CCC(=O)N[C@@H](CC(=O)N1CCCC[C@@H]1C)C(=O)N[C@@H](C)c1nc2ccccc2[nH]1` [CF-503149], the Selectivity was 139 and 199. On the same count and under the same terms, the result for `C[C@H](NC(=O)[C@H](CC(=O)N1CCC[C@@H]1c1ccccc1)NC(=O)CCC(C)(C)C)c1nc2ccccc2[nH]1` [CF-503156] reads 188; that for `CC(C)CCS(=O)(=O)N[C@@H](CC(=O)N1CCCC[C@@H]1C)C(=O)N[C@@H](C)c1ncc(-c2ccc(F)cc2F)[nH]1` [CF-503157], 7 and 14. `C[C@H](NC(=O)[C@H](CC(=O)N1CCCC[C@@H]1C)NC(=O)CCC(C)(C)C)c1ncc(-c2ccc(F)cc2F)[nH]1` [CF-503158]: the Selectivity is 196 and 386. For `CC(C)CCC(=O)N[C@@H](CC(=O)N1CCCC1)C(=O)N[C@@H](C)c1ncc(-c2ccc(F)cc2F)[nH]1` [CF-503159], the Selectivity is 3.

The compound `C[C@H](NC(=O)[C@H](CC(=O)N1CCCC1)NC(=O)CCC(C)(C)C)c1ncc(-c2ccc(F)cc2F)[nH]1` [CF-503160] displayed a Selectivity of 13.

Take `C[C@H](NC(=O)[C@H](CC(=O)N1CCC[C@@H]1C)NC(=O)CCC(C)(C)C)c1ncc(-c2ccc(F)cc2F)[nH]1` [CF-503162]: the Selectivity is 36 and 44.

As for `CC(C)CCNc1nc(C(=O)N[C@@H](C)C(=O)NCc2ccc(F)cc2F)cc(N2CCCC2)n1` [CF-503175], the Selectivity is given as 1 1. The same measure, in the same setting: the figure for `CC(C)CCS(=O)(=O)N[C@@H](CC(=O)N1CCC[C@@H]1c1ccccc1)C(=O)N[C@@H](C)c1nc2ccccc2[nH]1` [CF-503183] is 45 and 40 and 80. Same read-out and setting: the figure for `C[C@H](NC(=O)N(CC(=O)N1CCCC[C@@H]1C)NC(=O)CCC(C)(C)C)c1ncc(-c2ccc(F)cc2F)[nH]1` [CF-503189] is 1 and 1.3; for `CC(C)CCC(=O)N[C@@H](CC(=O)N1CCCC[C@@H]1C)C(=O)N[C@H](C)c1nc2ccccc2[nH]1` [CF-503192] it is 3; for `CC(C)CCC(=O)N[C@@H](CC(=O)N1CCCC[C@@H]1C)C(=O)NCc1nc2ccccc2[nH]1` [CF-503193] it is 27. On the same count and under the same terms, the result for `CC(C)CCC(=O)N[C@@H](CC(=O)N1CCCC[C@@H]1C)C(=O)N[C@@H](C)c1ncc(-c2ccc(F)cc2F)[nH]1` [CF-503198] reads 5; that for `CC(C)CCC(=O)N[C@@H](CC(=O)N(C)C(C)C)C(=O)N[C@@H](C)c1ncc(-c2ccc(F)cc2F)[nH]1` [CF-503200], 16. For the compound `C[C@H](NC(=O)N(CC(=O)N1CCCC[C@@H]1C)NC(=O)OC(C)(C)C)C(=O)NCc1ccc(F)cc1F` [CF-503201], the Selectivity is listed as 1 1.

On to `C[C@H](NC(=O)N(CC(=O)N1CCCC[C@@H]1C)NC(=O)CCC(C)(C)C)C(=O)NCc1ccc(F)cc1F` [CF-503202], for which the Selectivity is on record as 1 1. On the same count and under the same terms, the result for `C[C@H](NC(=O)[C@H](CC(=O)N1CCCC[C@@H]1C)NC(=O)CCC1CC1)c1ncc(-c2ccc(F)cc2F)[nH]1` [CF-503204] reads 119.

Compound `C[C@H](NC(=O)[C@H](CC(=O)N1CCCC[C@@H]1C)NS(=O)(=O)CCC1CC1)c1ncc(-c2ccc(F)cc2F)[nH]1` [CF-503206] returned a Selectivity of 12.

The data set is the same for the next values; noted with them: ratio IC50 (Human Constitutive) / IC50 (Mtb20SOG).
Turning to `CCC1CCCCN1C(=O)CC(NC(=O)C1CC1c1ccccc1)C(=O)NC(C)c1nc2c(F)cccc2[nH]1` (stereo not drawn), the Selectivity came out at 160. Take `Cc1cc(C(=O)NC(CC(=O)N2CCCCC2C)C(=O)NC(C)c2ncc(-c3ccccc3)[nH]2)no1` (mixture of isomers) [CF-503094]: the Selectivity is 25 15. As for `Cc1cc(C(=O)N[C@@H](CC(=O)N2CCCC[C@@H]2C)C(=O)N[C@@H](C)c2ncc(-c3ccccc3F)[nH]2)no1` [CF-503103], the Selectivity is >90 >49. On the same count and under the same terms, the result for `Cc1cc(C(=O)N[C@@H](CC(=O)N2CCCC[C@@H]2C)C(=O)N[C@@H](C)c2ncc(-c3ccc(F)cc3)[nH]2)no1` [CF-503105] reads >69 74. Same read-out and setting: the result for `Cc1cc(C(=O)N[C@@H](CC(=O)N2CCC[C@@H]2c2ccccc2)C(=O)N[C@@H](C)c2ncc(-c3ccccc3F)[nH]2)no1` [CF-503108] reads 7692 17 1023; that for `Cc1cc(C(=O)N[C@@H](CC(=O)N2CCCC[C@@H]2C)C(=O)N[C@@H](C)c2ncc(-c3ccc(F)cc3F)[nH]2)no1` [CF-503111], 175 161. The same measure, in the same setting: the result for `Cc1cc(C(=O)N[C@@H](CC(=O)N2CCC[C@@H]2c2ccccc2)C(=O)NC(C)c2nc3ccccc3[nH]2)no1` (stereo partly drawn) [CF-503127] reads 70.

In the case of `Cc1cc(C(=O)N[C@@H](CC(=O)N2CCC[C@@H]2c2ccccc2)C(=O)N[C@@H](C)c2ncc(Cc3ccccc3)[nH]2)no1` [CF-503134], the Selectivity was 82 133. Still for that read-out and setting: the figure for `C[C@H](NC(=O)[C@H](CC(=O)N1CCC[C@@H]1c1ccccc1)NC(=O)CC1CC1)c1ncc(Cc2ccccc2)[nH]1` [CF-503137] is 161 165. Same read-out and setting: the figure for `C[C@H](NC(=O)[C@H](CC(=O)N1CCCC[C@@H]1C)NC(=O)CC1CCOCC1)c1ncc(-c2ccc(F)cc2F)[nH]1` [CF-503139] is 144 69.

Turning to `Cc1ccc(S(=O)(=O)N[C@@H](CC(=O)N2CCCC[C@@H]2C)C(=O)N[C@@H](C)c2ncc(-c3ccc(F)cc3F)[nH]2)cc1` [CF-503143], the Selectivity came to 13. On the same count and under the same terms, the result for `C[C@H](NC(=O)[C@H](CC(=O)N1CCCC[C@@H]1C)NC(=O)C1CCC1)c1ncc(-c2ccc(F)cc2F)[nH]1` [CF-503146] reads 15.

On to `CC(C)CCC(=O)N[C@@H](CC(=O)N1CCCC[C@@H]1C)C(=O)N[C@@H](C)c1ncc(-c2ccc(F)cc2F)[nH]1` [CF-503147], for which the Selectivity is 130 182 289 471 . . . 194.

Regarding `CC(C)CCC(=O)N[C@@H](CC(=O)N1CCC[C@@H]1c1ccccc1)C(=O)N[C@@H](C)c1nc2ccccc2[nH]1` [CF-503150], the Selectivity is reported as 357 304 1062 134 179 1190.

In the case of `CC(C)C(=O)CN[C@@H](CC(=O)N1CCCC[C@@H]1C)C(=O)N[C@@H](C)c1ncc(-c2ccc(F)cc2F)[nH]1` [CF-503151], the Selectivity stood at 0.9. Still for that read-out and setting: the result for `Cc1cc(C(=O)N[C@@H](CC(=O)N2CCC[C@@H]2c2ccccc2)C(=O)N[C@@H](C)c2nc3ccccc3[nH]2)no1` [CF-503152] reads 60 76; that for `CC1CC(C(=O)N[C@@H](CC(=O)N2CCC[C@@H]2c2ccccc2)C(=O)NC(C)c2nc3ccccc3[nH]2)C1` (stereo partly drawn) [CF-503155], 67.

`Cc1cc(C(=O)N[C@@H](CC(=O)N2CCCC2)C(=O)N[C@@H](C)c2nc(-c3ccc(F)cc3F)c[nH]2)no1` [CF-503161]: the Selectivity worked out at 5. On the same count and under the same terms, the figure for `C[C@H](NC(=O)[C@H](CC(=O)N1CCC[C@@H]1C)NC(=O)CCC(C)(C)C)c1nc2ccccc2[nH]1` [CF-503163] is 5; for `CC(C)CCS(=O)(=O)NC(CC(=O)N1CCCC1c1ccccc1)C(=O)NC(C)c1nc2ccccc2[nH]1` (stereo not drawn) [CF-503184] it is 4; for `C[C@@H](NC(=O)[C@H](CC(=O)N1CCC[C@@H]1C)NC(=O)CCC(C)(C)C)c1nc2ccccc2[nH]1` [CF-503190] it is 7. The same measure, in the same setting: the result for `C[C@H]1CCCCN1C(=O)C[C@H](NC(=O)CCC(C)(C)C)C(=O)NCc1nc2ccccc2[nH]1` [CF-503191] reads 23; that for `CCN(CC)C(=O)C[C@H](NC(=O)CCC(C)C)C(=O)N[C@@H](C)c1nc(-c2ccc(F)cc2F)c[nH]1` [CF-503197], 7; that for `CC(C)CCC(=O)N[C@@H](CC(=O)N1CCCC[C@H]1C)C(=O)N[C@@H](C)c1nc(-c2ccc(F)cc2F)c[nH]1` [CF-503199], 10.

As for `CC(C)CCC(=O)N[C@@H](CC(=O)N1CCOC[C@@H]1C)C(=O)N[C@@H](C)c1nc(-c2ccc(F)cc2F)c[nH]1` [CF-503210], the Selectivity is 37.
